PubChem BioAssay AID504761 – Drosophila RNAi Screening Center, 2011
Screen: 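Fly genes whose silencing reduces dengue virus type 2 infection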 (primary screen). Cell system: D.Mel-2 cells from Drosophila. Knock-down reagent: long dsRNA against Drosophila genes. Treatment: infection with dengue virus type 2; dose and infection time not stated. Measured: 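Per well on two replicate plates, imaging gave the percent of cells positive for viral envelope protein, ranked by infection, and a nuclear count of cells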. Scale: infection score: higher = more virus-infected cells; cell count: higher = more cells in the well. Active means: 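Very low infection ranking in both replicate wells (chance probability at most 0.065), then a retest showing infection dropped 1.5-fold or more at p below 0.05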. Meaning of the calls: active = confirmed: knock-down lowers infection; inactive = not picked or not confirmed.
The deposit covers about 22,000 reagents; shown is a random part of those with a known target gene and a result. In the full data, 116 (0.52%) got an active call. 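Calls depend on retest data that are not deposited; infection was ranked per plate without normalising between plates; the unit of the infection score is not given.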 The raw values are shown without normalisation. The numbers tell different reagents against one gene apart. Further read-outs or replicates are left out here. Not given: the amount of reagent, the time to read-out.

{"Gene":"CG13033 (GeneID 39839)","reagent":1,"infection score, replicate 1":1.54,"cell count, replicate 1":6497,"Call":"inactive"}
{"Gene":"CG13033 (GeneID 39839)","reagent":2,"infection score, replicate 1":5.11,"cell count, replicate 1":6024,"Call":"inactive"}
{"Gene":"Cib2 (GeneID 37363)","reagent":1,"infection score, replicate 1":1.91,"cell count, replicate 1":6975,"Call":"active"}
{"Gene":"Slip1 (GeneID 43809)","reagent":1,"infection score, replicate 1":2.44,"cell count, replicate 1":6270,"Call":"inactive"}
{"Gene":"CG7264 (GeneID 39339)","reagent":1,"infection score, replicate 1":2.56,"cell count, replicate 1":6252,"Call":"inactive"}
{"Gene":"CG7264 (GeneID 39339)","reagent":2,"infection score, replicate 1":4.81,"cell count, replicate 1":6070,"Call":"inactive"}
{"Gene":"Doc1 (GeneID 39039)","reagent":1,"infection score, replicate 1":3.19,"cell count, replicate 1":5582,"Call":"inactive"}
{"Gene":"Doc1 (GeneID 39039)","reagent":2,"infection score, replicate 1":4.59,"cell count, replicate 1":5751,"Call":"inactive"}

Already shown: entries from further up.
{"Gene":"Cib2 (GeneID 37363)","reagent":1,"infection score, replicate 1":1.91,"cell count, replicate 1":6975,"Call":"active"}
{"Gene":"Slip1 (GeneID 43809)","reagent":1,"infection score, replicate 1":2.44,"cell count, replicate 1":6270,"Call":"inactive"}

The listing continues.
{"Gene":"mats (GeneID 42634)","reagent":1,"infection score, replicate 1":1.84,"cell count, replicate 1":5702,"Call":"inactive"}
{"Gene":"mats (GeneID 42634)","reagent":2,"infection score, replicate 1":6.17,"cell count, replicate 1":6366,"Call":"inactive"}
{"Gene":"Su(var)3-7 (GeneID 41627)","reagent":1,"infection score, replicate 1":2.95,"cell count, replicate 1":6512,"Call":"inactive"}
{"Gene":"Kaz (GeneID 326135)","reagent":1,"cell count, replicate 1":288,"Call":"inactive"}
{"Gene":"betaNACtes2 (GeneID 32386)","reagent":1,"infection score, replicate 1":5.12,"cell count, replicate 1":5489,"Call":"inactive"}
{"Gene":"CG10561 (GeneID 35189)","reagent":1,"infection score, replicate 1":31.9,"cell count, replicate 1":6337,"Call":"inactive"}
